A mixed list of measured activities; the numbers were collected in NIAID ChemDB.

Common to all: whole-cell or culture tests; agent: HIV-1; cell line: MT-4; measure: EC50

a–b is a range or a potency band.

SMILES | strain or isolate | changes | method | result
Cc1cn([C@H]2C[C@H](N=[N+]=[N-])[C@@H](COC(=O)OC[C@@H]3O[C@H]3CO)O2)c(=O)[nH]c1=O | IIIB |  | ELISA | 0.008 µM
CC1=C[C@H](Cn2cnc3c(N)ncnc32)C[C@@H]1CO | IIIB |  | MTT | >100 µg/mL
CSc1nc2ccccc2c(=O)n1/N=C1\C(=O)Nc2ccc(Br)cc21 | IIIB |  | cytopathic effect / MTT | >8 µM
Cc1c(C(Br)c2c(F)cccc2F)nc(N(C)C)[nH]c1=O | IIIB |  | MTT | 0.4 µM
Cc1ncn(Nc2cccc(Cl)c2)c1-c1cccc(Cl)c1 | SO561945 (RT K103N Y181C) | RT-K103N Y181C | cytopathic effect / MTT | 0.38 µM
CCOC(=O)c1cc(-c2cccc(OC)c2)n(-c2cccc(N=[N+]=[N-])c2)c1C |  |  | cytopathic effect / MTT | >6.4 µM
Clc1cc(Nc2nc(-c3cccnc3)nc3ccccc23)cc(Cl)c1Cl | NL4-3 |  | ELISA | 5 µM
COc1nc(N(C)C)nc(C(=O)c2c(F)cccc2F)c1C | IIIB | K103N + Y181C | MTT | >20 µM
Cc1ccc(C2CC2)c(-c2ccc3c(c2C)CCCO3)c1C(OC1CC1)C(=O)O | NL4-3 |  | ATP | 0.024 µM
CCOC(=O)c1cc(-c2cccc(OC)c2)n(-c2cccc(N)c2)c1C |  |  | cytopathic effect / MTT | >7.2 µM
CSc1nc2ccccc2c(=O)n1/N=C1\C(=O)N(CN2CCOCC2)c2ccccc21 | IIIB |  | cytopathic effect / MTT | >17 µM
O=c1[nH]c(-c2cccnc2)nc2ccc(O)cc12 | NL4-3 |  | ELISA | 17 µM
Cc1cccc(Nn2cnc(C)c2-c2cccc(C#N)c2)c1 | NL4-3 |  | cytopathic effect / MTT | >44.7 µM
CCCCCCCCCCO[C@@H]1O[C@H](COS(=O)(=O)O)[C@@H](OS(=O)(=O)O)[C@H](O[C@@H]2O[C@H](COS(=O)(=O)O)[C@@H](OS(=O)(=O)O)[C@H](O[C@@H]3O[C@H](COS(=O)(=O)O)[C@@H](OS(=O)(=O)O)[C@H](O[C@@H]4O[C@H](COS(=O)(=O)O)[C@@H](OS(=O)(=O)O)[C@H](O[C@@H]5O[C@H](COS(=O)(=O)O)[C@@H](OS(=O)(=O)O)[C@H](OS(=O)(=O)O)[C@H]5OS(=O)(=O)O)[C@H]4OS(=O)(=O)O)[C@H]3OS(=O)(=O)O)[C@H]2OS(=O)(=O)O)[C@H]1OS(=O)(=O)O | IIIB |  | cytopathic effect / MTT | 1.1 µg/mL
CC(C)(C)c1ccc(-c2ncccc2OCC(=O)Nc2ccc(C(N)=O)cc2)cc1 | IIIB |  | MTT / absorbance | >197 µM
Cn1c(N2CCOCC2)c(N=Nc2ccc(-c3ccc(F)cc3)cc2)c(N)nc1=O | IIIB |  | MTT | >88.71 µM
O=S(=O)(O)OCCCCCCCCCCCCO[C@@H]1O[C@H](COS(=O)(=O)O)[C@@H](OS(=O)(=O)O)[C@H](O[C@@H]2O[C@H](COS(=O)(=O)O)[C@@H](OS(=O)(=O)O)[C@H](O[C@@H]3O[C@H](COS(=O)(=O)O)[C@@H](OS(=O)(=O)O)[C@H](O[C@@H]4O[C@H](COS(=O)(=O)O)[C@@H](OS(=O)(=O)O)[C@H](O[C@@H]5O[C@H](COS(=O)(=O)O)[C@@H](OS(=O)(=O)O)[C@H](OS(=O)(=O)O)[C@H]5OS(=O)(=O)O)[C@H]4OS(=O)(=O)O)[C@H]3OS(=O)(=O)O)[C@H]2OS(=O)(=O)O)[C@H]1OS(=O)(=O)O | IIIB |  | cytopathic effect / MTT | 18 µg/mL
COc1cccc(F)c1C(=O)c1nc(N(C)C)nc(OC)c1C | IIIB |  | MTT | >7.8 µM
CCN(CC)c1c(N=Nc2ccc(-c3ccc(OC)c(OC)c3)cc2)c(N)nc(=O)n1C | IIIB |  | MTT | >25.23 µM
CSc1nc2ccccc2c(=O)n1/N=C1\C(=O)N(CN(C)C)c2ccc(Br)cc21 | IIIB |  | cytopathic effect / MTT | >16 µM
CC1=C[C@H](Cn2cnc3c(=O)[nH]cnc32)C[C@@H]1CO | IIIB |  | MTT | >100 µg/mL
Cc1ccc(NC(=O)COc2cccnc2-c2cccc3ccccc23)c([N+](=O)[O-])c1 | IIIB |  | MTT / absorbance | 8.18 µM
Cc1c(Cl)nc(N(C)C)nc1C(C#N)c1c(F)cccc1F | IIIB | K103N + Y181C | MTT | >34 µM
CCOP(=O)(CO[C@@H]1C=C[C@H](n2cnc3c(Cl)nc(N)nc32)C1(F)F)OCC |  |  | cytopathic effect | 90 µM
Cc1cn([C@H]2C[C@H](N=[N+]=[N-])[C@@H](CO)O2)c(=O)[nH]c1=O | IIIB |  | MTT | 0.0022 µM
CSc1nc2ccccc2c(=O)n1/N=C1\C(=O)Nc2ccccc21 | IIIB |  | cytopathic effect / MTT | >57 µM
Cc1ncn(Nc2ccccc2)c1-c1ccccc1 | NL4-3 |  | cytopathic effect / MTT | 20.98 µM
Cc1ccnc2c1NC(=O)c1cccnc1N2C1CC1 | IIIB |  | MTT | 0.05 µM
CC(C)(C)CCO[C@@H]1O[C@H](COS(=O)(=O)O)[C@@H](OS(=O)(=O)O)[C@H](O[C@@H]2O[C@H](COS(=O)(=O)O)[C@@H](OS(=O)(=O)O)[C@H](O[C@@H]3O[C@H](COS(=O)(=O)O)[C@@H](OS(=O)(=O)O)[C@H](O[C@@H]4O[C@H](COS(=O)(=O)O)[C@@H](OS(=O)(=O)O)[C@H](O[C@@H]5O[C@H](COS(=O)(=O)O)[C@@H](OS(=O)(=O)O)[C@H](OS(=O)(=O)O)[C@H]5OS(=O)(=O)O)[C@H]4OS(=O)(=O)O)[C@H]3OS(=O)(=O)O)[C@H]2OS(=O)(=O)O)[C@H]1OS(=O)(=O)O | IIIB |  | cytopathic effect / MTT | 0.78 µg/mL
CSc1nc2ccccc2c(=O)n1/N=C1\C(=O)N(CN(C)C)c2ccccc21 | IIIB |  | cytopathic effect / MTT | >11 µM
CN(C)c1nc(Cl)cc(C(C#N)c2c(F)cccc2F)n1 | IIIB |  | MTT | 2 µM
Nc1ccn([C@H]2C=C[C@@H](CO)O2)c(=O)n1 | IIIB |  | cytopathic effect / trypan blue | 0.91 µM
COCCOc1cc2nc(-c3cccnc3)nc(Nc3ccc(C(=O)O)cc3O)c2cc1OCCOC | NL4-3 |  | ELISA | >25 µM
CCOC(=O)c1cc(-c2cccc([N+](=O)[O-])c2)n(-c2ccccc2)c1C |  |  | cytopathic effect / MTT | >212 µM
CC(C)(C)C(=O)SCCOP(=O)(CO[C@@H]1C=C[C@H](n2cnc3c(N)ncnc32)C1(F)F)OCCSC(=O)C(C)(C)C |  |  | cytopathic effect | 10.8 µM
S=c1[nH]c(-c2ccccc2)c(-c2ccccc2)n1Nc1cccc(Cl)c1 | IIIB |  | cytopathic effect / MTT | >36.31 µM
COc1nc(N(C)C)nc(C(C#N)c2c(F)cccc2F)c1C | IIIB | Y181C | MTT | >10 µM
CC(=O)OC[C@H]1O[C@H](Oc2nc(O[C@H]3O[C@H](COC(C)=O)[C@@H](OC(C)=O)[C@H](OC(C)=O)[C@H]3OC(C)=O)c3ccccc3n2)[C@H](OC(C)=O)[C@@H](OC(C)=O)[C@@H]1OC(C)=O | NL4-3 |  | ELISA | >10 µM
CCCc1cc(=O)oc2c3c(c4c(c12)OC(C)(C)C=C4)O[C@H](C)C[C@@H]3O | IIIB |  | p24 | 4.65 µM
COc1cccc(Nn2cnc(C)c2-c2ccccc2)c1 | NL4-3 |  | cytopathic effect / MTT | >34.44 µM
Cc1ccnc2c1NC(=O)c1cccnc1N2C1CC1 | RES056 |  | MTT / absorbance | >15 µM
CC1(C)CC=C(c2cn(-c3nccc(C(=O)NC4CCC(N5CC6CCC(C5)O6)CC4)n3)c3ccc(F)c([C@H](OC(C)(C)C)C(=O)O)c23)CC1 | NL4-3 | E138K/Q148K | luminescence | 0.0029 µM
COc1cc(-c2cccnc2)nc2ccccc12 | NL4-3 |  | ELISA | 10–15 µM
CCOCCOCCOCCO[C@@H]1O[C@H](COS(=O)(=O)O)[C@@H](OS(=O)(=O)O)[C@H](O[C@@H]2O[C@H](COS(=O)(=O)O)[C@@H](OS(=O)(=O)O)[C@H](O[C@@H]3O[C@H](COS(=O)(=O)O)[C@@H](OS(=O)(=O)O)[C@H](O[C@@H]4O[C@H](COS(=O)(=O)O)[C@@H](OS(=O)(=O)O)[C@H](O[C@@H]5O[C@H](COS(=O)(=O)O)[C@@H](OS(=O)(=O)O)[C@H](OS(=O)(=O)O)[C@H]5OS(=O)(=O)O)[C@H]4OS(=O)(=O)O)[C@H]3OS(=O)(=O)O)[C@H]2OS(=O)(=O)O)[C@H]1OS(=O)(=O)O | IIIB |  | cytopathic effect / MTT | 110 µg/mL
Cc1cccc(Nn2c(-c3ccccc3)c(C(C)C)[nH]c2=S)c1 | SO561945 (RT K103N Y181C) | RT-K103N Y181C | cytopathic effect / MTT | >42.63 µM
CC(=O)c1ccc(NC(=O)COc2cccnc2-c2cccc3ccccc23)c(Br)c1 | IIIB |  | MTT / absorbance | >5.51 µM
CCCCCCCCCCO[C@@H]1O[C@H](COS(=O)(=O)O)[C@@H](OS(=O)(=O)O)[C@H](O[C@@H]2O[C@H](COS(=O)(=O)O)[C@@H](OS(=O)(=O)O)[C@H](O[C@@H]3O[C@H](COS(=O)(=O)O)[C@@H](OS(=O)(=O)O)[C@H](O[C@@H]4O[C@H](COS(=O)(=O)O)[C@@H](OS(=O)(=O)O)[C@H](OS(=O)(=O)O)[C@H]4OS(=O)(=O)O)[C@H]3OS(=O)(=O)O)[C@H]2OS(=O)(=O)O)[C@H]1OS(=O)(=O)O | IIIB |  | cytopathic effect / MTT | 9 µg/mL
COc1ccc(-c2ccc(N=Nc3c(N)nc(=O)n(C)c3N3CCCCC3)cc2)cc1OC | IIIB |  | MTT | >18.15 µM
CC(CO[C@@H]1O[C@H](COS(=O)(=O)O)[C@@H](OS(=O)(=O)O)[C@H](O[C@@H]2O[C@H](COS(=O)(=O)O)[C@@H](OS(=O)(=O)O)[C@H](O[C@@H]3O[C@H](COS(=O)(=O)O)[C@@H](OS(=O)(=O)O)[C@H](O[C@@H]4O[C@H](COS(=O)(=O)O)[C@@H](OS(=O)(=O)O)[C@H](O[C@@H]5O[C@H](COS(=O)(=O)O)[C@@H](OS(=O)(=O)O)[C@H](OS(=O)(=O)O)[C@H]5OS(=O)(=O)O)[C@H]4OS(=O)(=O)O)[C@H]3OS(=O)(=O)O)[C@H]2OS(=O)(=O)O)[C@H]1OS(=O)(=O)O)CC(C)(C)C | IIIB |  | cytopathic effect / MTT | 0.42 µg/mL
CCCCCCNc1c(N=Nc2ccc(Cl)cc2)c(N)nc(=O)n1C | IIIB |  | MTT | >66.6 µM
CC(=O)OC1[C@]2(C)[C@@H]3[C@@H](C[C@@]1(OC(C)=O)[C@H](OC(C)=O)[C@H]1[C@@H](OC(=O)c4ccccc4)[C@@H](C)C[C@]1(O)[C@@H]2OC(C)=O)C(=O)C(C)(C)[C@H]3OC(C)=O | IIIB |  | cytopathic effect / MTT | >100 µg/mL
Cc1nc2ccccc2c(-c2cc(F)c3c(c2C)CCCO3)c1[C@H](OC(C)(C)C)C(=O)O | NL4-3 | K173R | luminescence | 0.019 µM
CSc1nc2ccccc2c(=O)n1/N=C1\C(=O)N(CN2CCCCC2)c2ccc(Cl)cc21 | IIIB |  | cytopathic effect / MTT | >10 µM
Cn1c(-c2ccccc2F)cc(N)nc1=O | IIIB |  | MTT | >13.27 µM
CCn1cc(C(=O)O)c(=O)c2cc(F)c(N3CCN(c4ccccc4OC)CC3)c(OC(F)F)c21 | ADP/141 |  | cytopathic effect / MTT | 0.3 µM
CC(=O)OC1[C@@]2(OC(C)=O)CC3=C([C@H](OC(C)=O)C(C)(C)C3=O)[C@]1(C)[C@H](OC(C)=O)[C@@]1(O)C[C@H](C)[C@H](OC(=O)c3ccccc3)[C@@H]1[C@H]2OC(C)=O | IIIB |  | cytopathic effect / MTT | >100 µg/mL
Cc1ncn(Nc2cccc(Cl)c2)c1C | NL4-3 |  | cytopathic effect / MTT | >214 µM

The last 6 rows once more:

SMILES | strain or isolate | changes | method | result
Cc1nc2ccccc2c(-c2cc(F)c3c(c2C)CCCO3)c1[C@H](OC(C)(C)C)C(=O)O | NL4-3 | K173R | luminescence | 0.019 µM
CSc1nc2ccccc2c(=O)n1/N=C1\C(=O)N(CN2CCCCC2)c2ccc(Cl)cc21 | IIIB |  | cytopathic effect / MTT | >10 µM
Cn1c(-c2ccccc2F)cc(N)nc1=O | IIIB |  | MTT | >13.27 µM
CCn1cc(C(=O)O)c(=O)c2cc(F)c(N3CCN(c4ccccc4OC)CC3)c(OC(F)F)c21 | ADP/141 |  | cytopathic effect / MTT | 0.3 µM
CC(=O)OC1[C@@]2(OC(C)=O)CC3=C([C@H](OC(C)=O)C(C)(C)C3=O)[C@]1(C)[C@H](OC(C)=O)[C@@]1(O)C[C@H](C)[C@H](OC(=O)c3ccccc3)[C@@H]1[C@H]2OC(C)=O | IIIB |  | cytopathic effect / MTT | >100 µg/mL
Cc1ncn(Nc2cccc(Cl)c2)c1C | NL4-3 |  | cytopathic effect / MTT | >214 µM

ECn: concentration that inhibits the pathogen or its effect by n%. Blank or dashed fields: not listed here. Neighbouring rows are from separate reports.